The values that follow are results of earlier work, collected in US20220313828A1, “Use of low-molecular glycosidically bound terminal galactosides and fucosides for bonding to toxins that act as galectins in the treatment of intoxications, in particular ricin intoxications” (published 2022).

One data set deals with ricin (Ricinus communis, UniProt P02879). Conditions: reference (1).
In a further data set the test system is human macrophage cells. Particulars: human macrophage cells in vitro, reference (2).

For `OC[C@H]1O[C@@H](O[C@H]2[C@H](O)[C@@H](O)C(O)O[C@@H]2CO)[C@H](O)[C@@H](O)[C@H]1O` (some centres unmarked), the “effect on ricin intoxication” value at ricin is reported as “reduce a ricin intoxication”.

As for Epigallocatechin gallate, the “effect on toxic effect of ricin” value with human macrophage cells is “inhibits the toxic effect”.
